Measurements as given in PubChem BioAssay AID504558 (Broad Institute, 2011).
The list shows a part of the results, in another mix than the full data. The source made the active and inactive calls. Rule as the data show it: active = inhibition above about 41%; inconclusive = no clear call, values can overlap the other calls; inactive = below that.

Assay: blockers of LMP1-induced NF-kB reporter signal – cell-based, luminescence, single point, primary screen (AID 504558);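 also: 0% = neutral control wells and 100% = reference inhibitor control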
Details: LMP1-induced NF-kappaB luciferase reporter cells, at 12.5 µM, active compounds read high

| SMILES | inhibition |
| --- | --- |
| CN(C)c1ccc(C(=O)NCC2(N3CCCCC3)CCCCC2)cc1 | inactive: -30.1% |
| O=C1CCN(Cc2ccccc2)CC1 | inactive: -13.2% |
| CCOc1ccc(C)cc1CN(CCCl)CCCl | inactive: 2.79% |
| O=C(NCC1(N2CCCCC2)CCCCC1)c1ccc(F)cc1 | inactive: 1.61% |
| O=P1(N(CCCl)CCCl)SCCCS1 | inactive: -5.31% |
| CCCCOc1ccc(C(=O)NCC2(N3CCOCC3)CCCCC2)cc1 | inactive: -13% |
| COc1ccc(NC2CCN(CCc3ccccc3)CC2)c(OC)c1 | inactive: -4.21% |
| CCOC(=O)N1CCC(Nc2ccc(F)cc2)CC1 | inactive: 5.68% |
| CCOC(=O)N1CCC(Nc2cccc(C)c2)CC1 | inactive: -7.84% |
| COc1ccc(C(=O)NCC2(N3CCCCC3)CCCCC2)cc1 | inactive: -38.2% |
| CC(C)(C)OC(=O)N1CCC(N(C(=O)c2ccccc2)c2ccc(F)cc2)CC1 | inactive: 8.73% |
| COc1ccc(C(=O)NCC2(N3CCCCC3)CCCCC2)c(OC)c1OC | inactive: -0.905% |
| O=C(NCC1(N2CCCCC2)CCCCC1)c1ccc(=O)[nH]c1 | inactive: -40.2% |
| O=C(NCC1(N2CCCCC2)CCCCC1)c1cccs1 | inactive: -1.79% |
| CSc1ccccc1C(=O)NCC1(N2CCCCC2)CCCCC1 | inactive: -3.16% |
| Cc1cccc(NC2(C#N)CCN(Cc3ccccc3)CC2)c1 | inactive: 9.45% |
| O=C(NCC1(N2CCCCC2)CCCCC1)c1ccc(Cl)nc1 | inactive: -40% |
| Cc1cc(C)cc(N(C(=O)c2ccccc2)C2CCN(C(=O)OC(C)(C)C)CC2)c1 | inactive: 5.19% |
| O=C(NCC1(N2CCOCC2)CCCCC1)c1cc2ccccc2o1 | inactive: -5.67% |
| O=C(OC1CN2CCC1CC2)C1c2ccccc2Oc2ccccc21 (centres undefined) | inactive: 19.9% |
| O=C(NCC1(N2CCCCC2)CCCCC1)c1ccc(Cl)s1 | inactive: -25.7% |
| N#CC1(Nc2ccccc2)CCN(Cc2ccccc2)CC1 | inactive: -1.82% |

| SMILES | inhibition |
| --- | --- |
| COc1ccc(Cl)cc1C(=O)NCC1(N2CCOCC2)CCCCC1 | inactive: -3.28% |
| CCOC(=O)N1CCC(Nc2ccc(OC)cc2)CC1 | inactive: -6.1% |
| CC(C)c1ccc(NC2CCN(C(=O)OC(C)(C)C)CC2)cc1 | inactive: -2.73% |
| COc1ccc(CN(CCCl)CCCl)cc1Cl | inactive: -7.19% |
| CN(C)c1cccc(C(=O)NCC2(N3CCCCC3)CCCCC2)c1 | inactive: -10.5% |
| COc1cc(OC)c(C(=O)NCC2(N(C)C)CCCCC2)cc1OC | inactive: -0.889% |
| O=C(NCC1(N2CCOCC2)CCCCC1)c1cc(F)c(F)cc1Cl | inactive: 0.26% |
| O=C(NCC1(N2CCCCC2)CCCCC1)c1cncc(Br)c1 | inactive: -42.2% |
| CN1CCC(Nc2cccc(F)c2)CC1 | inactive: -3.04% |
| Cc1ccc(C(=O)NCC2(N(C)C)CCCCC2)o1 | inactive: 3.51% |
| CCCOc1ccc(C(=O)NCC2(N(C)C)CCCCC2)cc1OC | inactive: -13.8% |
| O=C(NCC1(N2CCCCC2)CCCCC1)c1ccc(OC(F)F)cc1 | inactive: -26.3% |
| CCN1CCC(Nc2ccc(Cl)cc2)CC1 | inactive: 7.48% |
| N#CC1(Nc2ccccc2)CCN(CCc2ccccc2)CC1 | inactive: -7.76% |
| O=C(NCC1(N2CCCCC2)CCCCC1)c1cccc([N+](=O)[O-])c1 | inactive: -44.3% |
| CSc1ccc(C(=O)NCC2(N3CCOCC3)CCCCC2)cc1 | inactive: -19.1% |
| O=C(NCC1(N2CCCCC2)CCCCC1)c1cccc(C(F)(F)F)c1 | inactive: -32.7% |
| COc1cc(C(=O)NCC2(N3CCCCC3)CCCCC2)ccc1OC(F)F | inactive: -57.3% |
| O=C(NCC1(N2CCOCC2)CCCCC1)c1cc(=O)[nH]c2ccccc12 | inactive: 4.48% |
| CN1CCN(CCOC(=O)C(O)(c2ccccc2)c2ccccc2)CC1 | inactive: 2.03% |
| CC(C)c1ccc(C(=O)NCC2(N3CCOCC3)CCCCC2)cc1 | inactive: -3.27% |
| COc1ccc(NC2CCN(C(=O)OC(C)(C)C)CC2)cc1 | inactive: -6.05% |
